Compound potency records, mixed from different reports. Data source: NIAID ChemDB in PubChem.

All rows: whole-cell or culture tests; species: Mycobacterium avium

Lines come from different laboratories, so protocols vary.

compound	strain	measure	value
CCCCCCOc1ccccc1NC(=O)OCCN(C)C	MY330/88	MIC	62.5 µM
Cc1ccc2oc(=O)n(-c3ccc(Br)cc3)c(=O)c2c1	CNCTC MY330/88	MIC	16 µM
CCCCCCOc1ccccc1NC(=O)OCCN1CCOCC1	MY330/88	MIC	125 µM
Fc1cccc(CSc2ncn[nH]2)c1	MY330/88	MIC	250 µM
O=c1oc2ccccc2c(=O)n1-c1ccc(F)cc1	CNCTC MY330/88	MIC	62 µM
CCCCCCCCOc1cccc(NC(=O)OCCN2CCCCC2)c1	MY330/88	MIC	16 µM
N#Cc1cccc(CSc2ncn[nH]2)c1	MY330/88	MIC	1000 µM
Cc1ccc2nc(SCc3ccc([N+](=O)[O-])cc3[N+](=O)[O-])[nH]c2c1	MY330/88	MIC	62 µM
CCCCCCCOc1ccccc1NC(=O)OCCN(C)C	MY330/88	MIC	8 µM
Cc1ccc(-n2c(=O)oc3ccc(Br)cc3c2=O)cc1	CNCTC MY330/88	MIC	31 µM
Fc1cccc(Cl)c1CSc1ncn[nH]1	MY330/88	MIC	1000 µM
COc1ccc2c(=O)n(-c3cccc(F)c3)c(=O)oc2c1	CNCTC MY330/88	MIC	32 µM
Clc1ccc(CSc2ncn[nH]2)cc1	MY330/88	MIC	500 µM
Cc1ccc2nc(SCc3ccccc3[N+](=O)[O-])[nH]c2c1	MY330/88	MIC	125 µM
Clc1ccc2c(c1)nc1cc(Nc3ccccc3)c(=NC3CCCCC3)cc-1n2-c1ccccc1	34540	MIC	2 µg/mL
Cc1ccc2nc(SCc3ccccc3F)[nH]c2c1	MY330/88	MIC	125 µM
CCCCCCCCCOc1ccc(NC(=O)OCCN2CCOCC2)cc1	MY330/88	MIC	16 µM
CCc1cc(C(N)=S)ccn1	1854-4	MBC	>40 µg/mL
Brc1cccc(CSc2ncn[nH]2)c1	MY330/88	MIC	250 µM
Cc1ccc(CSc2nc3ccc(C)cc3[nH]2)cc1	MY330/88	MIC	32 µM
CCCCCCOc1ccc(NC(=O)OCCN(C)C)cc1	MY330/88	MIC	16 µM

The last 2 rows once more:

compound,strain,measure,value
Cc1ccc(CSc2nc3ccc(C)cc3[nH]2)cc1,MY330/88,MIC,32 µM
CCCCCCOc1ccc(NC(=O)OCCN(C)C)cc1,MY330/88,MIC,16 µM